Results of unrelated studies side by side (data: NIAID ChemDB).

Common to all: tests in culture; species: Candida albicans; measure: MIC

Conditions beyond the fields shown may differ between rows. Blank or dashed fields: not listed here.

structure	strain	method	result
Cc1ccc(-c2nnc(SCC(O)(Cn3cncn3)c3ccc(Cl)cc3Cl)n2N)cc1	IRFC 37	broth dilution	8 µg/mL
CCCCCOc1ccc(-c2ccc(-c3ccc(C(=O)N[C@H]4CCCNC(=O)C5C[C@H](N)CN5C(=O)C(CN)NC(=O)C(CCc5ccc(O)cc5)NC(=O)C5C[C@@H](O)CN5C(=O)C(C(C)O)NC4=O)cc3)cc2)cc1	ATCC 10231		0.78 µg/mL
CCC(C)CC(C)CCCCCCCCC(=O)NC1C[C@H](O)[C@@H](O)NC(=O)[C@@H]2[C@@H](O)[C@@H](C)CN2C(=O)[C@H]([C@H](O)CC(N)=O)NC(=O)[C@H](C(O)[C@H](O)c2ccc(O)cc2)NC(=O)[C@@H]2C[C@@H](O)CN2C(=O)[C@H]([C@@H](C)O)NC1=O	MY1208		2 µg/mL
C[C@H]1[C@H](O)[C@@H](C)/C=C/C=C/C=C/C=C/C=C/C=C/C=C/[C@H](O[C@@H]2O[C@H](C)[C@@H](O)[C@H](N)[C@@H]2O)C[C@@H]2O[C@](O)(C[C@@H](O)C[C@@H](O)CC[C@H](O)[C@@H](O)C[C@@H](O)CC(=O)O[C@H]1C)C[C@H](O)[C@H]2C(=O)O	ATCC64550		0.5 µg/mL
Nn1c(SCC(O)(Cn2cncn2)c2ccc(F)cc2F)nnc1-c1ccccc1	IRFC 36	broth dilution	>64 µg/mL
CCCCCOc1ccc(-c2ccc(-c3ccc(C(=O)N[C@H]4CCCNC(=O)C5C[C@H](N=C(N)N)CN5C(=O)C(C(C)O)NC(=O)C(CCc5ccc(O)cc5)NC(=O)C5C[C@@H](O)CN5C(=O)C(C(C)O)NC4=O)cc3)cc2)cc1	ATCC 62376		0.39 µg/mL
C[C@@H](n1cnc2c(Br)cc(Br)cc2c1=O)[C@](O)(Cn1cncn1)c1ccc(F)cc1F	60 strains		0.07 µg/mL
Nn1c(SCC(O)(Cn2cncn2)c2ccc(F)cc2F)nnc1-c1ccc(F)cc1	PTCC 6027	broth dilution	>64 µg/mL
C[C@@H](n1cnc2ncccc2c1=O)[C@](O)(Cn1cncn1)c1ccc(F)cc1F	76 strains		40 µg/mL
Cc1ccc(-c2nnc(SCC(O)(Cn3cncn3)c3ccc(F)cc3F)n2N)cc1	IRFC 36	broth dilution	>64 µg/mL
N=C(N)c1ccc2nc(-c3ccc(-c4nc5ccc(C(=N)N)cc5[nH]4)[nH]3)[nH]c2c1	ATCC 76615		0.39 µg/mL
C[C@@H](n1cnc2cc(C(N)=O)ccc2c1=O)[C@](O)(Cn1cncn1)c1ccc(F)cc1F	76 strains		10 µg/mL
CCCC(O)C/C=C\C=C\C(=O)OC[C@H]1O[C@@H](O[C@@H]2[C@H](OC(=O)/C=C/C=C/CC(O)/C(C)=C/C=C/CCC(C)CC)[C@@H](O)[C@]3(OCc4cc(O)cc(O)c43)O[C@@H]2CO)[C@H](O)[C@@H](O)[C@H]1O	MY1028		2 µg/mL
O=C1/C(=C/c2ccc(O)c(O)c2)CCc2ccccc21			50 µg/mL
Clc1ccc(/C(Cn2ccnc2)=N/OCc2ccccc2)cc1	CA7		32 µg/mL
Nn1c(SCC(O)(Cn2cncn2)c2ccc(F)cc2F)nnc1-c1ccc(Cl)cc1	IRFC 37	broth dilution	>64 µg/mL
COc1cccc2c(=O)n([C@H](C)[C@](O)(Cn3cncn3)c3ccc(F)cc3F)cnc12	60 strains		2.5 µg/mL
Nn1c(SCC(O)(Cn2cncn2)c2ccc(F)cc2F)nnc1-c1ccncc1	IRFC 37	broth dilution	>64 µg/mL
COc1ccccc1/C=C1\CSc2ccc(Cl)cc2C1=O			12.5 µg/mL
c1ccc(CO/N=C(/Cn2ccnc2)c2ccccc2)cc1	3M		64 µg/mL
CCC(C)n1ncn(-c2ccc(N3CCN(c4ccc(OC[C@H]5CO[C@](Cn6cncn6)(c6ccc(Cl)cc6Cl)O5)cc4)CC3)cc2)c1=O	406 strains		0.07 µg/mL
CCCCCOc1ccc(-c2ccc(-c3ccc(C(=O)N[C@H]4CCCNC(=O)C5C[C@H](N)CN5C(=O)C(CCCN(C)C)NC(=O)C(CCc5ccc(O)cc5)NC(=O)C5C[C@@H](O)CN5C(=O)C(C(C)O)NC4=O)cc3)cc2)cc1	ATCC CCH442		0.2 µg/mL
COc1cc(/C=C2\COc3ccccc3C2=O)ccc1O			50 µg/mL
Nn1c(SCC(O)(Cn2cncn2)c2ccc(Cl)cc2Cl)nnc1-c1ccncc1	IRFC 192	broth dilution	>64 µg/mL
CCCCCOc1ccc(-c2ccc(-c3ccc(C(=O)N[C@H]4CCCNC(=O)[C@H]5CCN5C(=O)C(C(C)O)NC(=O)C(CCc5ccc(O)cc5)NC(=O)C5C[C@@H](O)CN5C(=O)C(C(C)O)NC4=O)cc3)cc2)cc1	ATCC 62376		>100 µg/mL
C[C@@H](n1cnc2cc(N(C)C)ccc2c1=O)[C@](O)(Cn1cncn1)c1ccc(F)cc1F	60 strains		0.31 µg/mL
Nn1c(SCC(O)(Cn2cncn2)c2ccc(F)cc2F)nnc1-c1cccc(Br)c1	PTCC 6027	broth dilution	>64 µg/mL
Fc1ccc(/C(Cn2ccnc2)=N/OCc2ccccc2)cc1	PR1		64 µg/mL
CCCCCOc1ccc(-c2ccc(-c3ccc(C(=O)N[C@H]4CCCNC(=O)C5C[C@H](N)CN5C(=O)C(C(C)O)NC(=O)C(c5ccc(O)cc5)NC(=O)C5CC(O)CN5C(=O)C(C(C)O)NC4=O)cc3)cc2)cc1	ATCC CCH442		50 µg/mL
Nn1c(SCC(O)(Cn2cncn2)c2ccc(Cl)cc2Cl)nnc1-c1ccc(Cl)cc1Cl	PTCC 6027	broth dilution	8 µg/mL
Clc1ccc(/C(Cn2ccnc2)=N\OCc2ccccc2)cc1	PR1		64 µg/mL
CCCCCC(CCCCC)c1ccc(N2CCN(c3ccc(C(=O)N[C@H]4CCCNC(=O)C5C[C@H](N)CN5C(=O)C(C(C)O)NC(=O)C(CCc5ccc(O)cc5)NC(=O)C5C[C@@H](O)CN5C(=O)C(C(C)O)NC4=O)cc3)CC2)cc1	ATCC 10231		0.78 µg/mL
COc1ccc2c(c1)C(=O)/C(=C/c1ccc3c(c1)CC3)CO2			25 µg/mL